Reference: PubChem BioAssay AID624099 (ICCB-Longwood, 2012)
Test: 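Knock-downs relieving repression by E2 of an HPV18 LCR luciferase reporter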 (primary screen). Cells: human C33A cervical carcinoma cells (HPV-negative) stably expressing BPV1 E2 and an HPV18 LCR luciferase reporter. Knock-down reagent: siRNA pool against human genes, 40 nM. Time to read-out: 72 h. Read-out: 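Per-well luciferase luminescence, z-scored on each plate against the plate mean and SD with control wells left out, then averaged across three replicate plates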. Direction: mean z-score and z-score: higher = stronger reporter signal, weaker E2 silencing. Rule for the call: 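Hit if mean z-score reaches 2 and two or more of three replicate z-scores also reach 2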.
In all, the deposit lists about 21,000 reagents; shown is a part drawn at random. Over the whole deposit, 497 (2.4%) were called active. 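Higher z means weaker E2 silencing; only reporter increases were scored, and knock-downs that hurt cell survival may mask genuine repressor factors.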

gene	PubChem SID	mean z-score	z-score, replicate A	z-score, replicate B	z-score, replicate C	call
LOC339209 (retired record)	SID134325638	0.68	0.53	0.16	1.35	inactive
ATP11A	SID134325164	-1.23	-1.36	-1.08	-1.26	inactive
CHKB	SID56479083	-0.03	-0.13	-0.25	0.28	inactive
ATP2B2	SID134311535	-0.22	-0.06	-0.32	-0.27	inactive
PNMA8B	SID134328923	-1.67	-1.9	-1.47	-1.65	inactive
MTFR1	SID134323220	-0.47	-0.53	-0.38	-0.49	inactive
TMEM9B	SID134324356	0.36	0.12	0.62	0.34	inactive
RGMA	SID134318004	-0.79	-0.59	-1.02	-0.74	inactive
CEMIP2	SID134324064	-0.87	-0.62	-1.35	-0.65	inactive
RNF26	SID134312183	0.3	0.27	0.55	0.06	inactive
SLC17A8	SID134312466	-0.2	-0.36	0.02	-0.25	inactive
TTC16	SID134320996	1.56	1.86	1.64	1.19	inactive
ARPC1B	SID134316379	0.53	0.23	0.83	0.55	inactive
M6PR	SID134315109	0.75	0.9	0.67	0.68	inactive
MRPL11	SID134317358	-0.73	-0.85	-0.68	-0.67	inactive
TAL1	SID134310171	-1.17	-1.13	-1.35	-1.03	inactive
THADA	SID134329500	-0.59	-0.13	-0.15	-1.48	inactive
NCR3LG1	SID134328333	-1.26	-1.37	-1.47	-0.96	inactive
SIRT7	SID134312736	0.5	1	0.13	0.35	inactive
ARHGDIA	SID134320253	0.44	0.37	0.82	0.14	inactive
GLRA1	SID134311599	-0.5	-0.48	-0.55	-0.46	inactive

No new results follow: an excerpt of the list.
gene	PubChem SID	mean z-score	z-score, replicate A	z-score, replicate B	z-score, replicate C	call
SLC17A8	SID134312466	-0.2	-0.36	0.02	-0.25	inactive
TTC16	SID134320996	1.56	1.86	1.64	1.19	inactive
ARPC1B	SID134316379	0.53	0.23	0.83	0.55	inactive
M6PR	SID134315109	0.75	0.9	0.67	0.68	inactive
MRPL11	SID134317358	-0.73	-0.85	-0.68	-0.67	inactive
TAL1	SID134310171	-1.17	-1.13	-1.35	-1.03	inactive
THADA	SID134329500	-0.59	-0.13	-0.15	-1.48	inactive
NCR3LG1	SID134328333	-1.26	-1.37	-1.47	-0.96	inactive

Further reagents:
gene	PubChem SID	mean z-score	z-score, replicate A	z-score, replicate B	z-score, replicate C	call
RIPPLY1	SID134326171	0.41	0.39	0.42	0.41	inactive
TMEM135	SID134322016	-1.07	-0.83	-1.21	-1.16	inactive
SORBS3	SID134319460	-1.8	-1.81	-2	-1.58	inactive
CLYBL	SID134322147	0.64	0.79	0.55	0.6	inactive
HIC2	SID134317145	0.22	0.15	0.2	0.32	inactive
RAB2A	SID134315033	1.03	1.09	1.16	0.83	inactive
REX1BD	SID134324649	1.21	1.67	1.27	0.7	inactive
NEK8	SID56478901	0.31	0.61	0.16	0.18	inactive
TEDC2	SID134318705	2.71	3.01	2.52	2.6	active
KLC4	SID134319548	0.4	0.35	0.35	0.49	inactive
MATCAP2	SID134326319	0.28	0.09	0.43	0.33	inactive
NMNAT2	SID134313440	-0.51	-0.45	-0.62	-0.47	inactive
BRD7	SID134324020	1.5	1.96	1.35	1.18	inactive
STEAP1	SID134310049	0.37	-0.04	0.51	0.63	inactive
MTARC1	SID134323155	-0.2	0	-0.41	-0.17	inactive
BEX5	SID134326163	-0.17	-0.23	-0.24	-0.04	inactive
AVP	SID134315362	0.93	0.73	1.18	0.88	inactive
TLN2	SID134317159	-0.64	-0.66	-0.61	-0.65	inactive
H1-10-AS1	SID134327365	-0.9	-0.16	-1.57	-0.98	inactive
OR8J3	SID134329835	-0.32	-0.48	-0.13	-0.37	inactive
KRT37	SID134315843	-1.74	-1.82	-1.71	-1.7	inactive
SNAPC5	SID134323833	-0.1	-0.25	0	-0.06	inactive
IFT70B	SID134320510	0.49	0.69	0.36	0.41	inactive
TLR6	SID56478986	0.88	0.92	0.9	0.83	inactive
CHP1	SID134325017	-0.24	-0.46	-0.03	-0.23	inactive
GALK1	SID56479189	1.28	1.19	0.99	1.65	inactive
KRT84	SID134317867	0.89	0.84	1.1	0.73	inactive
P3H1	SID134310351	-0.33	-0.46	-0.53	0.01	inactive
FAM20B	SID134324807	0.64	0.6	0.7	0.61	inactive
C4orf33	SID134322307	0.64	0.07	0.78	1.07	inactive
NT5C	SID134324203	0.41	0.85	0.29	0.08	inactive
SLC60A1	SID134322411	-0.43	-0.5	0	-0.78	inactive
PITX1	SID134321194	0.3	0.59	0.18	0.13	inactive
ATP6V0E2-AS1	SID134327771	0.09	0.2	0.18	-0.12	inactive
NYAP2	SID134325619	-1.11	-1.31	-0.99	-1.03	inactive
RAI1	SID134316576	-1.26	-1.12	-1.5	-1.17	inactive
